Pooled drug test results. Numbers come from NIAID ChemDB, via PubChem.

Shared fields: tests in culture; organism: Candida albicans; read-out: MFC

An empty or dashed field is not shown. Lines come from different laboratories, so protocols vary. Two numbers with a dash give a range or band.

structure | strain | read by | value
O=C1C(c2ccccc2)=[N+]([O-])c2ccccc21 |  |  | 7.81 µg/mL
C[C@@H]1CC[C@@]2(OC1)O[C@H]1C[C@H]3[C@@H]4CC=C5C[C@@H](O)[C@H](O)[C@@H](O[C@@H]6OC[C@@H](O)[C@H](O)[C@H]6O[C@@H]6O[C@@H](C)[C@H](O)[C@@H](O)[C@H]6O)[C@]5(C)[C@H]4CC[C@]3(C)[C@H]1[C@@H]2C |  |  | ≥20 µg/mL
O=[N+]([O-])/C=C/c1c[nH]c2ccccc12 |  |  | >1600 µg/mL
COc1ccc(C2=[N+]([O-])c3ccccc3C2=O)cc1 |  |  | >125 µg/mL
CC1=CC(=O)c2c(ccc(C3=C(C)C(=O)c4cccc(O)c4C3=O)c2O)C1=O |  |  | >1000 µg/mL
COC(=O)C1=CC[C@@]23CC[C@@H]([C@@](C)(/C=C/C=C(\C)C(=O)O)OC2=O)[C@@]3(O)CC1 | ATCC 10231 |  | 6.25 µg/mL
C[C@@H]1O[C@@H](O[C@@H]2[C@@H](O)[C@H](OCCc3ccc(O)c(O)c3)O[C@@H](CO)[C@H]2OC(=O)/C=C/c2ccc(O)c(O)c2)[C@H](O)[C@H](O)[C@H]1O | ATCC 10231 | broth dilution | 250 µg/mL
C=C(CCC1(OC)O[C@H]2C[C@H]3[C@@H]4CC=C5C[C@@H](O)[C@H](O)[C@@H](O[C@@H]6OC[C@@H](O)[C@H](O)[C@H]6O)[C@]5(C)[C@H]4CC[C@]3(C)[C@H]2[C@@H]1C)CO[C@@H]1O[C@H](CO)[C@@H](O)[C@H](O)[C@H]1O |  |  | ≥20 µg/mL
COc1ccc2c(c1)C(=O)C(c1ccc(-c3ccc(Cl)cc3)cc1)=[N+]2[O-] |  |  | >62.5 µg/mL
Nc1[nH]c(=O)ncc1F |  |  | 128 µg/mL
O=C1C(c2ccc(Cl)cc2)=[N+]([O-])c2cc3c(cc21)OCO3 |  |  | >125 µg/mL
C=C1CO[C@@]2(O[C@H]3C[C@H]4[C@@H]5CC=C6C[C@@H](O)[C@H](O)[C@@H](O[C@@H]7O[C@H](CO)[C@H](O)[C@H](O)[C@H]7O)[C@]6(C)[C@H]5CC[C@]4(C)[C@H]3[C@@H]2C)[C@@H](O)C1 |  |  | ≥20 µg/mL
CCC(C)CC(C)CCCCCCCCC(=O)NC1CC(O)CNC(=O)C2C(O)CCN2C(=O)C(C(O)CC(N)=O)NC(=O)C(C(O)Cc2ccc(OP(=O)([O-])[O-])cc2)NC(=O)C2CC(O)CN2C(=O)C(C(C)O)NC1=O.[Na+].[Na+] | MY1055 |  | 1 µg/mL
S=C=NCc1ccccc1 |  | broth dilution | 600 µg/mL
C[C@@H]1CC[C@@]2(OC1)O[C@H]1C[C@H]3[C@@H]4CC=C5C[C@@H](O)[C@H](O)[C@@H](O[C@@H]6OC[C@@H](O)[C@H](O)[C@H]6O[C@@H]6O[C@@H](C)[C@H](O)[C@@H](O)[C@H]6O)[C@]5(C)[C@H]4CC[C@]3(C)[C@@]1(O)[C@@H]2C |  |  | 20 µg/mL
CCC(C)CC(C)CCCCCCCCC(=O)NC1C[C@@H](O)[C@@H](O)NC(=O)[C@@H]2[C@@H](O)CCN2C(=O)[C@H]([C@@H](O)CC(N)=O)NC(=O)[C@H]([C@H](O)[C@@H](O)c2ccc(OP(=O)([O-])O)cc2)NC(=O)[C@@H]2C[C@@H](O)CN2C(=O)[C@H]([C@H](C)O)NC1=O.[Na+] | MY1028 |  | 4 µg/mL
CC(=O)N1CCN(c2ccc(OC[C@H]3CO[C@](Cn4ccnc4)(c4ccc(Cl)cc4Cl)O3)cc2)CC1 |  |  | 32 µg/mL
C=C(Cl)/C=C/[C@H](O)CC(=C)C[C@H]1OC2[C@@H](O)[C@]3(O)C[C@@H](O)[C@H](C)[C@H](CCC/C=C\[C@@H]4C[C@@H](O)C[C@]5(C[C@H](OC)CC(CC(=O)[C@@H](C)[C@H](OC(C)=O)[C@@H](C)C(=C)C[C@@H]6C[C@@](C)(O)C[C@]7(C[C@H](OC(C)=O)CC(CC(=O)O[C@@H]([C@@H]1O)[C@H]2C)O7)O6)O5)O4)O3 | ATCC 60193 |  | 3.12 µg/mL
CC(C)(CCCS(=O)(=O)O)N(Cl)Cl | ATCC 10231 |  | >128 µg/mL
COc1cc(C(=O)OCCc2ccc(O)cc2)ccc1O | ATCC 10231 | broth dilution | 250 µg/mL
C[C@@H]1[C@H](O)[C@@H](C)/C=C/C=C/CC/C=C/C=C/C=C/C=C/C(O[C@H]2O[C@H](C)[C@@H](O)[C@H](N)[C@@H]2O)CC2O[C@](O)(CC(O)C(O)CCC(O)CC(O)CC(O)CC(=O)O[C@H]1C)CC(O)C2C(=O)O |  | broth dilution | 25 µg/mL
O=c1oc2ccccc2c(O)c1C(c1c(O)c2ccccc2oc1=O)c1coc2ccccc2c1=O |  | agar diffusion / agar | 100 µg/mL
COc1cc(O)c(C(C)=O)c(OC)c1 | ICB 12 |  | 250 µg/mL
c1ccc([Se][Se]c2ccccc2)cc1 |  | broth dilution | 8–32 µg/mL
CCC(C)n1ncn(-c2ccc(N3CCN(c4ccc(OC[C@H]5CO[C@](Cn6cncn6)(c6ccc(Cl)cc6Cl)O5)cc4)CC3)cc2)c1=O |  |  | 32 µg/mL
N#CCc1ccccc1 |  | broth dilution | 5000 µg/mL
N=C(N)c1ccc2c(c1)[nH]c1cc(C(=N)N)ccc12 | A39 |  | 1.56 µg/mL
Cc1nn(-c2ccccc2)c2c1C(c1c(O)c3ccccc3oc1=O)c1c(oc3ccccc3c1=O)O2 |  | agar diffusion / agar | 100 µg/mL
C=C1/C=C(\C)[C@H](CC)OC(=O)[C@H](C)C(=O)C(O)(CO)C/C(OC)=C/[C@@H](C)C1 | ATCC 90028 |  | 10 µg/mL
Cc1cc(O)c2c(c1)C(=O)C=CC2=O |  |  | 20 µg/mL
O=C1C(c2ccc(Cl)cc2)=[N+]([O-])c2cccnc21 |  |  | 15.63 µg/mL
CCC(C)(C)c1ccc(CC(C)CN2C[C@@H](C)O[C@@H](C)C2)cc1 |  |  | 64 µg/mL
Clc1ccc([Se][Se]c2ccc(Cl)cc2)cc1 |  | broth dilution | >64 µg/mL
C[C@H]1[C@H](O)[C@@H](C)/C=C/C=C/C=C/C=C/C=C/C=C/C=C/[C@H](O[C@@H]2O[C@H](C)[C@@H](O)[C@H](N)[C@@H]2O)C[C@@H]2O[C@](O)(C[C@@H](O)C[C@@H](O)CC[C@H](O)[C@@H](O)C[C@@H](O)CC(=O)O[C@H]1C)C[C@H](O)[C@H]2C(=O)O |  |  | 0.25 µg/mL
CC(C)(COC(=O)CCS(=O)(=O)O)N(Cl)Cl | ATCC 10231 |  | 4 µg/mL